Measured values as given in patent publication US20130189283A1 (Amgen, published 2013).

Target: Kv1.3 voltage-gated potassium channel on T cells in human whole blood (human, UniProt P22001 1-575)
Experiment: cell-based or functional assay

| Binder | Potency Relative to ShK (WB, IL2) [fold] | WB (IFNg) IC50 [nM] | WB (IL-2) IC50 [nM] |
| --- | --- | --- | --- |
| Monovalent Fc/Fc-ShK(1-35 Q16K) heterodimer (Fc fusion) chain 1: ERKVECPPCPAPPVAGPSVFLFPPKPKDTLMISRTPEVTCVVVDVSHEDPEVQFNWYVDGVEVHNAKTKPREEQFNSTFRVVSVLTVVHQDWLNGKEYKCKVSNKGLPAPIEKTISKTKGQPREPQVYTLPPSREEMTKNQVSLTCLVKGFYPSDIAVEWESNGQPENNYKTTPPMLDSDGSFFLYSKLTVDKSRWQQGNVFSCSVMHEALHNHYTQKSLSLSPGK chain 2: ERKVECPPCPAPPVAGPSVFLFPPKPKDTLMISRTPEVTCVVVDVSHEDPEVQFNWYVDGVEVHNAKTKPREEQFNSTFRVVSVLTVVHQDWLNGKEYKCKVSNKGLPAPIEKTISKTKGQPREPQVYTLPPSREEMTKNQVSLTCLVKGFYPSDIAVEWESNGQPENNYKTTPPMLDSDGSFFLYSKLTVDKSRWQQGNVFSCSVMHEALHNHYTQKSLSLSPGKGGGGSGGGGSRSCIDTIPKSRCTAFKCKHSMKYRLSFCRKTCGTC | 2.39 | 0.499 | 0.16 |
| Bivalent Fc-ShK(1-35, Q16K) homodimer (Fc fusion) ERKVECPPCPAPPVAGPSVFLFPPKPKDTLMISRTPEVTCVVVDVSHEDPEVQFNWYVDGVEVHNAKTKPREEQFNSTFRVVSVLTVVHQDWLNGKEYKCKVSNKGLPAPIEKTISKTKGQPREPQVYTLPPSREEMTKNQVSLTCLVKGFYPSDIAVEWESNGQPENNYKTTPPMLDSDGSFFLYSKLTVDKSRWQQGNVFSCSVMHEALHNHYTQKSLSLSPGKGGGGSGGGGSRSCIDTIPKSRCTAFKCKHSMKYRLSFCRKTCGTC | 27.6 | 3.14 | 1.85 |
